Laboratory results taken from US20240336610A1, “3CL PROTEASE SMALL-MOLECULE INHIBITOR FOR TREATING OR PREVENTING CORONAVIRUS INFECTION, AND USE THEREOF” (THE GLOBAL HEALTH DRUG DISCOVERY INSTITUTE, priority 2021, published 2024).
The match of structure and compound is tentative.

Experiments:
[1] = target: SARS-CoV-2 main protease (3CLpro) (Severe acute respiratory syndrome coronavirus 2 (2019-nCoV) (SARS-CoV-2), UniProt P0DTD1); assay: Enzyme activity test; assay type: biochemical; settings: 200 nM recombinant SARS-CoV-2 main protease, 15 μM fluorescent substrate, pH 7.3
SARS-CoV-2 = assay: SARS-CoV-2/Hela-ACE test; settings: read-out: SAR-CoV-2 EC50; Hela-ACE cells infected with SARS-CoV-2 (USA-WA1/2020), 48 hours

CC(C)(C)OC(=O)N[C@H](C(=O)N1C[C@H]2[C@@H]([C@H]1C(=O)NC(C#N)c1cncc(C(F)(F)F)c1)C2(C)C)C(C)(C)C (some centres unmarked)
IC50 [1]: 0.027 µM | EC50 (SARS-CoV-2): 0.547 µM
